Values of other authors, collected in paper PMC2770896, “Inhibition of Neuraminidase Inhibitor-Resistant Influenza Virus by DAS181, a Novel Sialidase Fusion Protein” (PLoS ONE, 2009).

Test system: IFV A/Victoria/3/75 passaged with peramivir, HA mutation K186E
Details: tested form: tartrate; cited from earlier work

## CCC(CC)O[C@@H]1C=C(C(=O)O)C[C@H](N)[C@H]1NC(C)=O [oseltamivir, oseltamivir carboxylate]
  NAI resistance in vitro: strongly pan-NAI resistant
